Results of unrelated studies side by side (data: NIAID ChemDB).

Common to all: toxicity to cultured cells; endpoint: CC50

An empty or dashed field is not shown. Rows are shuffled and stem from different studies. CCn is the concentration with n% toxicity to the cells.

smiles	cell line	read by	value
NC(=O)c1cccnc1	SupT1		>10000 µM
C[C@](Cl)([C@@H](Br)/C=C/[C@](C)(Cl)CBr)[C@@H](Br)CCl	KBV (-VBL)		5.3 µg/mL
CCCCC1CN(S(C)(=O)=O)CCC12CCN(C1(C)CCN(C(=O)c3c(C)ncnc3C)CC1)CC2	CEM-R5		0.1 µM
Nc1nc(N)c2ncn(CCOCP(=O)(O)O)c2n1	HB611	trypan blue	35 µg/mL
Cc1cccc(CNC(=O)NC2N=C(c3ccccc3)c3ccccc3NC2=O)c1	HEP-2		3 µM
CC(C)[C@H](NC(=O)OCc1ccccc1)C(=O)N[C@@H](Cc1ccccc1)[C@@H](O)[C@H](O)[C@H](Cc1ccccc1)NC(=O)[C@@H](NC(=O)OCc1ccccc1)C(C)C	PBLC		>0.1 µM
CCCCCCCCCN1C[C@H](O)[C@@H](O)[C@H](O)[C@H]1CO	MDBK		≤300 µM
COC(=O)N[C@H](C(=O)N[C@@H](Cc1ccccc1)[C@@H](O)CN(Cc1ccc(-c2ccccn2)cc1)NC(=O)[C@@H](NC(=O)OC)C(C)(C)C)C(C)(C)C	TM-31	MTT	>100 µM
CCCCc1ccc(Nc2c[nH]c(=O)[nH]c2=O)cc1	A549 cells	MTT	>50 µg/mL
COC(=O)Nc1nc2ccc(C(=O)c3ccccc3)cc2[nH]1	E6		0.2 µg/mL
Cc1cc(=O)oc2cc(O)c(O)cc12	HEL		161 µg/mL
COC(=O)Nc1nc2ccc(S(=O)c3ccccc3)cc2[nH]1	E6		>3 µg/mL
O=c1[nH]c(=O)n(C2C=CC(O)C2)cc1Nc1ccc(Oc2ccccc2)cc1	Huh7 cells	MTT	>50 µg/mL
CC(C)CN(C[C@@H](O)[C@H](Cc1ccccc1)NC(=O)O[C@H]1CCOC1)S(=O)(=O)c1ccc(N)cc1	KG-1-C	MTT	>100 µM
Cc1ccc(Nc2c[nH]c(=O)[nH]c2=O)cc1	Vero cells	MTT	>50 µg/mL
Cc1cn([C@H]2CC[C@@H](CO)O2)c(=O)[nH]c1=O	ATH8	trypan blue	>2000 µM
O=c1c(Nc2ccccc2)cn(C2C=CC(O)C2)c(=O)n1C1C=CC(O)C1	A549 cells	MTT	>50 µg/mL
CC(C)(C)S(=O)(=O)C[C@@H](Cc1cccc2ccccc12)C(=O)N[C@@H](CC(N)=O)C(=O)N[C@@H](Cc1ccccc1)[C@@H](O)[C@H](O)[C@H](Cc1ccccc1)NC(=O)[C@H](CC(N)=O)NC(=O)[C@H](Cc1cccc2ccccc12)CS(=O)(=O)C(C)(C)C	PBLC		>10 µM
O=C(NC1N=C(c2ccccc2)c2ccccc2NC1=O)c1ccc(Cl)c(Cl)c1	VERO		6 µM
O=c1c2cc(O)ccc2oc2cccc(O)c12	1A2	XTT / absorbance	>548 µM
O=c1[nH]c(=O)n([C@H]2C[C@H](O)[C@@H](CO)O2)cc1F	RPMI8226		32.3 µM
O=Nc1c(-c2c(O)[nH]c3ccccc23)[nH]c2ccccc12	MDM	MTT	>4 µM
CCCCCCCCCCCCCCCO[P@]1(=O)OC[C@@H]2COC(=O)C2=C(CCCC)O1	U-2 OS	resazurin	>50 µM
CCCS(=O)c1ccc2nc(NC(=O)OC)[nH]c2c1	E6		>3 µg/mL
O=c1[nH]c(=S)n([C@H]2C[C@H](O)[C@@H](CO)O2)cc1F	RPMI8226		184 µM
COc1cc2oc3c4c(ccc3c(=O)c2c2c1C=CC(C)(C)O2)OCO4	1A2	XTT / absorbance	50.63 µM
CN(C)c1nc(N)c(C(=O)N=C(N)N)nc1Cl	MDM		>10 µM
C=C(COCP(=O)(O)O)Cn1cnc2c(=O)[nH]c(N)nc21	CrFK		>500 µM
Cc1cn([C@H]2C[C@H](N=[N+]=[N-])[C@@H](CO)O2)c(=O)[nH]c1=O	CBMC		60 µM
CCCCC1C(=O)N(CC2CCN(CC(F)F)CC2)CCC12CCN(C1(C)CCN(C(=O)c3c(C)ncnc3C)CC1)CC2	CEM-R5		0.026 µM
Nc1ccn([C@H]2CC[C@@H](CO)O2)c(=O)n1	ATH8	trypan blue	35 µM
COc1cc(O)cc(O)c1C(=O)c1ccc(O)c(O)c1	1A2	XTT / absorbance	>452 µM
CCCCC1CN(C(=O)C2CCOCC2)CCC12CCN(C1(C)CCN(C(=O)c3c(C)cc(C#N)nc3C)CC1)CC2	CEM-R5		0.217 µM
O=c1[nH]c(=O)n([C@H]2C[C@H](F)[C@@H](CO)O2)cc1/C(I)=C/I	PBM		43 µM
O=c1ccn([C@H]2C[C@H](O)[C@@H](CO)O2)c(=S)[nH]1	RPMI8226		288 µM
Nc1ccn([C@H]2C=C[C@@H](CO)O2)c(=O)n1	HB611	trypan blue	200 µg/mL
[N-]=[N+]=N[C@H]1C[C@H](n2cc(C#CI)c(=O)[nH]c2=O)O[C@@H]1CO	PBM		19.7 µM
CCCSc1ccc2nc(NC(=O)OC)[nH]c2c1	E6		0.3 µg/mL
Nc1nc(=S)n([C@H]2C[C@H](O)[C@@H](CO)O2)cc1I	RPMI8226		256 µM
O=c1[nH]cccc1O	HEL		>200 µg/mL
CCCC(=O)O[C@H]1CN2CC[C@H](O)[C@@H]2[C@@H](O)[C@@H]1O	MDBK		>1000 µM
C=CCc1cc(OC)c(O[C@H](C)[C@H](O)c2cc(OC)c(OC)c(OC)c2)c(OC)c1	P3HR-1	trypan blue / microscopy	>200 µM
CCOC(=O)c1cc(O)c(O)c(O)c1	HEL		36 µg/mL
O=c1[nH]c(=O)n([C@H]2C[C@H](F)[C@@H](CO)O2)cc1/C(Br)=C/I	PBM		26.8 µM
Nc1nc2c(ncn2[C@H]2CO[C@@H](CO)O2)c(=O)[nH]1	CBMC		>500 µM
O=c1[nH]c(=S)n([C@@H]2O[C@H](CO)[C@@H](O)[C@@H]2O)cc1Br	RPMI8226		>295 µM
O=c1c2cc(O)ccc2oc2cc(O)cc(O)c12	1A2	XTT / absorbance	120 µM
C[C@@H]1CC[C@H]2[C@@H](C)C(=O)O[C@@H]3OC4(C)CC[C@@H]1[C@]32OO4	EBTR		>100 µM
O=C1C(=O)c2ccccc2-c2ccccc21	Normal Vero cell line	MTT / absorbance	25 µg/mL
CC(C)=CCc1c(O)cc2oc3ccc(O)cc3c(=O)c2c1O	1A2	XTT / absorbance	51.23 µM
COc1ccc(Br)c(C(=O)NC2N=C(c3ccccc3)c3ccccc3NC2=O)c1	HEP-2		2 µM
Nc1ncnc2c1ncn2C[C@@H](CO)OCP(=O)(O)O	HB611	trypan blue	24 µg/mL
COc1ccccc1CCC(=O)NC1N=C(c2ccccc2)c2ccccc2NC1=O	HEP-2		5 µM
Cc1cn([C@H]2C[C@H](N=[N+]=[N-])[C@@H](CO)O2)c(=O)[nH]c1=O	HeLaT4		>2500 µM
CC(C)[C@H](NC(=O)[C@H](Cc1cccc2ccccc12)CS(=O)(=O)C(C)(C)C)C(=O)NC[C@@H](O)[C@H](O)CNC(=O)[C@@H](NC(=O)[C@H](Cc1cccc2ccccc12)CS(=O)(=O)C(C)(C)C)C(C)C	PBLC		>10 µM

A second listing of 7 rows from above:

| smiles | cell line | read by | value |
|---|---|---|---|
| CN(C)c1nc(N)c(C(=O)N=C(N)N)nc1Cl | MDM |  | >10 µM |
| COc1ccccc1CCC(=O)NC1N=C(c2ccccc2)c2ccccc2NC1=O | HEP-2 |  | 5 µM |
| O=Nc1c(-c2c(O)[nH]c3ccccc23)[nH]c2ccccc12 | MDM | MTT | >4 µM |
| CCCCCCCCCN1C[C@H](O)[C@@H](O)[C@H](O)[C@H]1CO | MDBK |  | ≤300 µM |
| O=c1[nH]c(=O)n([C@H]2C[C@H](F)[C@@H](CO)O2)cc1/C(I)=C/I | PBM |  | 43 µM |
| CCCS(=O)c1ccc2nc(NC(=O)OC)[nH]c2c1 | E6 |  | >3 µg/mL |
| COc1cc(O)cc(O)c1C(=O)c1ccc(O)c(O)c1 | 1A2 | XTT / absorbance | >452 µM |